A mixed list of measured activities; the numbers were collected in NIAID ChemDB.

All rows: cytotoxicity tests; cells: MRC-5; measure: CC50

a–b is a range or a potency band. CCn: concentration that lowers growth or viability of the cells by n%. Conditions beyond the fields shown may differ between rows.

compound | result
CCCCCCCCOCCCOP(=O)(O)C(=O)O | 1000 µM
O=C1c2ccc(O)c(O)c2C(=O)c2c(O)ccc(O)c21 | >36.7 µM
O=C(O)P(=O)(O)O | >1000 µM
O=C1c2ccccc2C(=O)c2c1ccc(O)c2O | >41.6 µM
O=c1[nH]c(=S)n([C@H]2C[C@H](O)[C@@H](CO)O2)cc1I | >542 µM
CC#Cc1cn([C@@H]2O[C@H](CO)[C@@H](O)[C@@H]2O)c(=O)[nH]c1=O | >500 µM
NC1=Nc2c(ncn2CCC/C=C/P(=O)(O)O)C(=O)C1 | 188 µM
CC#Cc1cn([C@@H]2O[C@H](COP(=O)(O)OCC)[C@@H](O)[C@@H]2O)c(=O)[nH]c1=O | >250 µM
Cc1cc(O)c2c(c1)Cc1cc(O)cc(O)c1C2=O | 3.5 µM
CC#Cc1cn([C@@H]2O[C@H](COP(=O)(NCCC)Oc3ccccc3)[C@@H](O)[C@@H]2O)c(=O)[nH]c1=O | 125 µM
Nc1nc(=S)n([C@H]2C[C@H](O)[C@@H](CO)O2)cc1I | 272 µM
CCCCCCCCCCCCCCCCCCOCCCOP(=O)(O)C(=O)O | 660 µM
N=C(N)c1cn([C@@H]2O[C@H](CO)[C@@H](O)[C@@H]2O)c2ncnc(N)c12 | >100 µM
O=c1[nH]c(=S)n([C@@H]2O[C@H](CO)[C@@H](O)[C@@H]2O)cc1Cl | >680 µM
CCCCCCCCCCCCCCCCOC[C@@H](O)COP(=O)(O)C(=O)O | 320–1000 µM
NC(=S)c1cn([C@@H]2O[C@H](CO)[C@@H](O)[C@@H]2O)c2ncnc(N)c12 | 3 µM
CC#Cc1cn([C@@H]2O[C@H](COP(=O)(O)OCC(F)(F)F)[C@@H](O)[C@@H]2O)c(=O)[nH]c1=O | >250 µM
NC1=Nc2c(ncn2CCCCC(F)(F)P(=O)(O)O)C(=O)C1 | >1000 µM
N/C(=N/O)c1cn([C@H]2C[C@H](O)[C@@H](CO)O2)c2ncnc(N)c12 | 20 µM
CCCCCCCCCCCCCCCCCCOC[C@@H](O)COP(=O)(O)C(=O)O | ~1000 µM
CCCCCCCCCCCCOCCCOP(=O)(O)C(=O)O | 320 µM
CCCCCCCCSC[C@H](O)COP(=O)(O)C(=O)O | 100–320 µM
NC12CC3CC(CC(C3)C1)C2 | 40–1000 µM
CCCCCCCCCCCCCCCCCCSC[C@H](O)COP(=O)(O)C(=O)O | 95 µM
NC(=O)c1cn([C@H]2C[C@H](O)[C@@H](CO)O2)c2ncnc(N)c12 | 1 µM
C[C@@H]1O[C@@H](Oc2c(-c3ccc(O)cc3)oc3cc(O)cc(O)c3c2=O)[C@H](OC(=O)/C=C/c2ccc(O)cc2)[C@H](OC(=O)/C=C/c2ccc(O)cc2)[C@H]1O | >40 µM
CC#Cc1cn([C@@H]2O[C@H](COP(=O)(O)Oc3ccccc3)[C@@H](O)[C@@H]2O)c(=O)[nH]c1=O | >500 µM

A second listing of 2 rows from above:

compound	result
CC#Cc1cn([C@@H]2O[C@H](COP(=O)(O)OCC(F)(F)F)[C@@H](O)[C@@H]2O)c(=O)[nH]c1=O	>250 µM
CCCCCCCCCCCCCCCCCCOCCCOP(=O)(O)C(=O)O	660 µM